Assay results published in patent publication US20020142940A1, “Method of inhibiting viral infection using HMG-COA reductase inhibitors and isoprenylation inhibitors” (priority 2000, published 2002).
“Also recorded” adds a separate entry of the source.

Test: Serum cholesterol levels in RSV-infected mice (ACE7 Cholesterol Reagent)
Type: in vivo
Conditions: 1 mg/day lovastatin begun 3 days before to 3 days after infection (up to 11 days); serum 8 days post RSV infection

Question: For `CC[C@H](C)C(=O)O[C@H]1C[C@@H](C)C=C2C=C[C@H](C)[C@H](CC[C@@H]3C[C@@H](O)CC(=O)O3)[C@H]21` [lovastatin], which serum cholesterol levels is on record?
Answer: not significant differences; also recorded: no significant change
